Laboratory results as given in the supplement of paper PMC3578754.
Fold change is the IC50 on the isolate divided by the IC50 on a reference virus; 1 = unchanged, higher = more resistant. Changes are given against the subtype B consensus. No active / inactive call. The values were gathered from many studies (numbered anew) with different assays, which the source does not name. Most viruses are clinical isolates; some are laboratory strains or clones with known resistance changes. Isolates with mixed residues are left out; stretches that were not sequenced show no change. Round top values that many isolates share are read here as limits; other very high values and 0.1 may be limits too.

Assays:
Test in all cases: fold change of IC50 against reference virus; higher = more resistant
delavirdine = compound: CC(C)Nc1cccnc1N1CCN(C(=O)c2cc3cc(NS(C)(=O)=O)ccc3[nH]2)CC1 [delavirdine]
Experimental: (§1)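 Cell-culture drug susceptibility tests of virus bearing the reverse transcriptase of each isolate, gathered from many studies.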

efavirenz = compound: O=C1Nc2ccc(Cl)cc2[C@@](C#CC2CC2)(C(F)(F)F)O1 [efavirenz]
Experimental: as §1

nevirapine = compound: Cc1ccnc2c1NC(=O)c1cccnc1N2C1CC1 [nevirapine]
Experimental: as §1

Test System | fold change of IC50 against reference virus (delavirdine) | fold change of IC50 against reference virus (efavirenz) | fold change of IC50 against reference virus (nevirapine)
HIV-1 isolate 1531 (reverse transcriptase changes: K102Q S162C G190A K277R, study 110) | 0.5 | 7.6 | 75
HIV-1 isolate 201 (reverse transcriptase changes: K102Q S162C G190T K277R I293V, study 55) | 0.1 | 150 | 356
HIV-1 isolate 749 (reverse transcriptase changes: K102Q S162C Y181C G190A K277R, study 53) | 20 | 12 | 680
HIV-1 isolate 658 (reverse transcriptase changes: K11T K20R V21I V35T K122E D123N K173S D177G V179I Y181C T200A I202V Q207A R211S V245Q E248C V261I T286A E291D V292I I293V P294T E312D I329V, study 14) | 44 | 1.3 | 208
HIV-1 isolate 1368 (reverse transcriptase changes: K102Q K103R S162C I178V K277R I293V K347R R358K V435I S468P, study 111) | 1 | 1.3 | 1.1
HIV-1 isolate 1640 (reverse transcriptase changes: K102Q S162C Y181C M230L K277R, study 70) | ≥ 250 | 25 | 780
HIV-1 isolate 184 (reverse transcriptase changes: K102Q S162C G190S K277R, study 110) | 0.4 | 47 | 206
HIV-1 isolate 1569 (reverse transcriptase changes: K102Q K103N S162C M230L K277R, study 70) | ≥ 250 | 450 | 780
HIV-1 isolate 1537 (reverse transcriptase changes: K101P K102Q S162C I178V K277R I293V K347R R358K V435I S468P, study 111) | 47 | 26 | 171
HIV-1 isolate 646 (reverse transcriptase changes: K101E K102Q V108I S162C G190A K277R, study 53) | 200 | 270 | 680
HIV-1 isolate 141 (reverse transcriptase changes: M41L V60I D67N L74V K102Q S162C G190E T215C K219E K277R I293V, study 55) | 4 | 300 | 600
HIV-1 isolate 1612 (reverse transcriptase changes: I31T V35T E40D I50V K122E D123S I135T I142T K173S D177E V179I Q207A R211S F214L V245Q A272P E291D I293V P294T L310I E312D D324E, study 14) | 6.8 | 5.6 | 8.1
